Experimental findings from publication PMC8113354 are described below.

The exact form of at least one protein or probe is not confirmed.

The data set has as its system GST-FgRbp1 (Fusarium graminearum PH-1). Nature of the data set: EMSA. The note with it: 2 uM RNA, 5 uM protein; recombinant protein; protein details: N-term GST (pGEX4T-3). Background: A gel shift assay detects complexes by their altered migration in electrophoresis.

Regarding “CAAGACAAGACAAGACAAGACAAGACAAGA [(CAAGA)6]”, the binding result is given as “binds”.

For “CAAGGCAAGGCAAGGCAAGGCAAGGCAAGG [(CAAGG)6]”, the binding result is given as “binds”.
